# Results reported in patent publication US20060270832A1, “Type II chi-conotoxin peptides (noradrenaline transporter inhibitors)” (published 2006).
# Target: human noradrenaline transporter (hNET) (human), P23975
# Test: cell-based or functional assay
row,Binder,"Av IC50, inhibition of NA uptake via hNET (log M (unit not given))"
1,WKDVCCGYKLCWPC (modifications not checked) [SEQ ID NO. 92],-7.44
2,WNGVCCGYKLCHPC (modifications not checked) [SEQ ID NO. 82],-5.5
3,VCCGYKLCC (modifications not checked) [SEQ ID NO. 148],-6.46
4,NGVCCGYKLCHPC (modifications not checked) [SEQ ID NO. 146],-6.13
5,YNGVCCGYKLCRPC (modifications not checked) [SEQ ID NO. 89],-6.95
